{"source": "PubChem BioAssay AID624099 (ICCB-Longwood, 2012)", "screen": "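Knock-downs relieving repression by E2 of an HPV18 LCR luciferase reporter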 (primary screen)", "cells": "human C33A cervical carcinoma cells (HPV-negative) stably expressing BPV1 E2 and an HPV18 LCR luciferase reporter", "reagent": "siRNA pool against human genes, 40 nM", "duration": "72 h", "measured": "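Per-well luciferase luminescence, z-scored on each plate against the plate mean and SD with control wells left out, then averaged across three replicate plates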", "direction": "mean z-score and z-score: higher = stronger reporter signal, weaker E2 silencing", "call rule": "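Mean z ≥ 2 together with z ≥ 2 in two or more of the three replicates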", "note": "In all, the deposit lists about 21,000 reagents; this is a random part of them. 497 of them (2.4%) count as active. 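Higher z means weaker E2 silencing; only reporter increases were scored, and knock-downs that hurt cell survival may mask genuine repressor factors.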 Reagents against one gene are numbered here."}
{"gene knocked down": "ZC3H6 (GeneID 376940)", "reagent": 1, "mean z-score": -0.07, "z-score, replicate A": 0.06, "z-score, replicate B": -0.08, "z-score, replicate C": -0.18, "outcome": "inactive"}
{"gene knocked down": "MEIS3 (GeneID 56917)", "reagent": 1, "mean z-score": 0.04, "z-score, replicate A": -0.03, "z-score, replicate B": 0.25, "z-score, replicate C": -0.12, "outcome": "inactive"}
{"gene knocked down": "PKMYT1 (GeneID 9088)", "reagent": 1, "mean z-score": -2.02, "z-score, replicate A": -2.25, "z-score, replicate B": -1.66, "z-score, replicate C": -2.16, "outcome": "inactive"}
{"gene knocked down": "MICAL2 (GeneID 9645)", "reagent": 1, "mean z-score": -0.14, "z-score, replicate A": -0.24, "z-score, replicate B": -0.17, "z-score, replicate C": -0.02, "outcome": "inactive"}
{"gene knocked down": "MICAL2 (GeneID 9645)", "reagent": 2, "mean z-score": 1.52, "z-score, replicate A": 1.76, "z-score, replicate B": 1.25, "z-score, replicate C": 1.55, "outcome": "inactive"}
{"gene knocked down": "SEC24B (GeneID 10427)", "reagent": 1, "mean z-score": -1.71, "z-score, replicate A": -1.63, "z-score, replicate B": -1.73, "z-score, replicate C": -1.76, "outcome": "inactive"}
{"gene knocked down": "GUCA1A (GeneID 2978)", "reagent": 1, "mean z-score": 0.62, "z-score, replicate A": 0.74, "z-score, replicate B": 0.52, "z-score, replicate C": 0.6, "outcome": "inactive"}
{"gene knocked down": "FGF6 (GeneID 2251)", "reagent": 1, "mean z-score": -0.64, "z-score, replicate A": -0.64, "z-score, replicate B": -0.62, "z-score, replicate C": -0.67, "outcome": "inactive"}
{"gene knocked down": "LOC388903 (retired record) (GeneID 388903)", "reagent": 1, "mean z-score": 0.28, "z-score, replicate A": 0.12, "z-score, replicate B": 0.61, "z-score, replicate C": 0.12, "outcome": "inactive"}
{"gene knocked down": "GGACT (GeneID 87769)", "reagent": 1, "mean z-score": -1.32, "z-score, replicate A": -0.75, "z-score, replicate B": -1.66, "z-score, replicate C": -1.56, "outcome": "inactive"}
{"gene knocked down": "GIPR (GeneID 2696)", "reagent": 1, "mean z-score": 0.19, "z-score, replicate A": 0.26, "z-score, replicate B": 0.15, "z-score, replicate C": 0.16, "outcome": "inactive"}
{"gene knocked down": "TRIM68 (GeneID 55128)", "reagent": 1, "mean z-score": 2.69, "z-score, replicate A": 2.79, "z-score, replicate B": 2.52, "z-score, replicate C": 2.74, "outcome": "active"}

2 of these entries in another layout.
gene knocked down | reagent | mean z-score | z-score, replicate A | z-score, replicate B | z-score, replicate C | outcome
FGF6 (GeneID 2251) | 1 | -0.64 | -0.64 | -0.62 | -0.67 | inactive
LOC388903 (retired record) (GeneID 388903) | 1 | 0.28 | 0.12 | 0.61 | 0.12 | inactive
